In paper PMC5802825, “Legionella DotM structure reveals a role in effector recruiting to the Type 4B secretion system” (2018) one finds Kd data, which are given here for three molecules.

Protein sequences, listed by entry. Tags and fused reporters are not part of them. Residues count along the entry.
UniProt Q5ZYC7, 153-380 limits assumed: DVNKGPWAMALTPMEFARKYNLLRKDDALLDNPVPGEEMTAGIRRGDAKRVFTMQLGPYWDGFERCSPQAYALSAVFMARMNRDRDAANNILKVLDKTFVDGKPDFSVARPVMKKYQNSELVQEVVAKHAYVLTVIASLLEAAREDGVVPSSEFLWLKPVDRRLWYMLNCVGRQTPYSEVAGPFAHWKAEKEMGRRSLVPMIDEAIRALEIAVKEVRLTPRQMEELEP

As a reminder, the Kd is a measure of binding affinity in units of concentration. Read a low Kd as a tighter complex.

The target in the experiment is DotM153 WT (cytoplasmic domain of DotM, residues 153–380) (Legionella pneumophila subsp. pneumophila, UniProt Q5ZYC7).
`CC(C)[C@H](NC(=O)[C@H](CO)NC(=O)[C@H](C)NC(=O)[C@H](CO)NC(=O)[C@H](CC(N)=O)NC(=O)[C@H](CCCNC(=N)N)NC(=O)[C@H](CO)NC(=O)[C@H](CCC(=O)O)NC(=O)[C@H](CCC(=O)O)NC(=O)[C@H](CC(=O)O)NC(=O)[C@H](CCC(=O)O)NC(=O)[C@H](CC(N)=O)NC(=O)[C@H](CCC(=O)O)NC(=O)[C@H](CCC(=O)O)NC(=O)[C@H](CCC(=O)O)NC(=O)[C@H](CO)NC(=O)[C@H](CCC(=O)O)NC(=O)[C@H](C)NC(=O)[C@H](CCCCN)NC(=O)[C@H](CC(=O)O)NC(=O)[C@H](CCC(=O)O)NC(=O)[C@H](CO)NC(=O)[C@@H](NC(=O)[C@@H](NC(=O)[C@H](CCCCN)NC(=O)[C@@H]1CCCN1C(=O)CNC(=O)CN)C(C)C)C(C)C)C(=O)O` yielded an equilibrium dissociation constant (Kd) of 700 nM. That is a sub-micromolar value.

The molecule `CC(C)C[C@H](NC(=O)[C@H](CO)NC(=O)[C@H](CO)NC(=O)[C@H](CC(C)C)NC(=O)[C@H](CC(C)C)NC(=O)[C@H](CO)NC(=O)[C@H](CO)NC(=O)[C@H](CCC(=O)O)NC(=O)[C@H](CCC(=O)O)NC(=O)[C@H](CCC(=O)O)NC(=O)[C@H](CCC(=O)O)NC(=O)[C@H](CCC(=O)O)NC(=O)[C@H](CCC(=O)O)NC(=O)[C@H](CCC(=O)O)NC(=O)[C@H](CCC(=O)O)NC(=O)[C@H](CC(C)C)NC(=O)[C@H](CC(C)C)NC(=O)[C@@H](NC(=O)[C@H](CC(=O)O)NC(=O)[C@H](CC(=O)O)NC(=O)[C@H](CO)NC(=O)[C@H](CO)NC(=O)[C@H](Cc1ccccc1)NC(=O)CNC(=O)CN)C(C)C)C(=O)N[C@@H](CCCCN)C(=O)N[C@@H](CCC(=O)O)C(=O)O` gave a Kd of 350 nM.

With `CSCC[C@H](NC(=O)[C@@H](NC(=O)[C@H](Cc1ccccc1)NC(=O)[C@H](CCCNC(=N)N)NC(=O)[C@H](CO)NC(=O)[C@H](CO)NC(=O)[C@H](CCC(=O)O)NC(=O)[C@H](CCC(=O)O)NC(=O)[C@H](CC(N)=O)NC(=O)[C@H](CCC(=O)O)NC(=O)[C@H](CCC(=O)O)NC(=O)[C@H](CCC(=O)O)NC(=O)[C@H](CCCCN)NC(=O)[C@H](CCC(=O)O)NC(=O)[C@H](CCC(=O)O)NC(=O)[C@H](CC(N)=O)NC(=O)[C@H](CCC(=O)O)NC(=O)[C@H](CO)NC(=O)[C@H](CO)NC(=O)[C@H](CCC(=O)O)NC(=O)[C@H](CO)NC(=O)[C@H](CO)NC(=O)[C@H](CO)NC(=O)[C@H](Cc1ccccc1)NC(=O)[C@H](CCC(=O)O)NC(=O)[C@H](C)NC(=O)CNC(=O)CN)[C@@H](C)O)C(=O)O`, the Kd came to 190 nM.
